Anti-infective test results gathered from many reports (values: NIAID ChemDB through PubChem).

Common to all: cytotoxicity tests; cell line: MT-4; endpoint: CC50

Lines come from different laboratories, so protocols vary. CCn is the concentration with n% toxicity to the cells. Blank or dashed fields: not listed here. a–b is a range or a potency band.

| smiles | method | result |
|---|---|---|
| COC(=O)[C@H](NP(=O)(OC[C@H]1C=C[C@@H](n2cnc3c(N)ncnc32)C1)Oc1ccccc1)C(C)C | trypan blue | 101 µM |
| CN(C)C(=O)Oc1nsnc1-c1ccccc1Cl |  | 162 µM |
| COc1cc(O)c2c(c1)C(=O)c1c(cc3c(c1O)-c1c(cc(C)c(C(=O)N[C@H](C)C(=O)O)c1O)[C@H](O[C@@H]1O[C@H](C)[C@H](N)[C@H](O[C@@H]4OC[C@@H](O)[C@H](O)[C@@H]4O)[C@H]1O)[C@H]3O)C2=O |  | >100 µg/mL |
| Nc1ccn([C@H]2CC[C@@H](CO)O2)c(=O)n1 |  | 87 µM |
| CC(C)=CCN1Cc2cc(Cl)cc3[nH]c(=S)n(c23)C[C@@H]1C |  | 10 µg/mL |
| COC(=O)[C@H](C)NP(=O)(OC[C@@H]1CC[C@H](n2cnc3c(N)ncnc32)C1)Oc1ccccc1 | MTS | 6.5 µM |
| Cc1cn([C@H]2C[C@H](N=[N+]=[N-])[C@@H](CO)O2)c(=O)[nH]c1=O | MTT | >100 µM |
| Fc1ccc2c(c1)nc1n2C(c2c(Cl)cccc2Cl)SC1 |  | 13.3 µM |
| O=C1CSC2(CCCCC2)N1Cc1ccco1 |  | 271 µM |
| Nc1ncnc2c1ncn2CCOCP(=O)(O)O |  | 21 µg/mL |
| O=C(c1ccccc1)c1ccc2nc3n(c2c1)C(c1c(Cl)cccc1Cl)SC3 |  | 1.3 µM |
| CC(C)[C@H](NC(=O)[C@H](CCCN=C(N)N)NC(=O)N[C@@H](Cc1ccccc1)C(=O)O)C(=O)N[C@H](CO)Cc1ccccc1 |  | >100 µM |
| COC(=O)[C@H](CCCCN)NP(=O)(OC[C@H]1C=C[C@@H](n2cnc3c(N)ncnc32)C1)Oc1ccccc1 | trypan blue | >250 µM |
| CCN1C/C(=C\c2ccc(O)c([N+](=O)[O-])c2)C(=O)/C(=C/c2ccc(O)c([N+](=O)[O-])c2)C1 | MTT | 15 µM |
| CN(C)C(=O)Oc1nsnc1-c1ccccc1 |  | 210 µM |
| Nc1ncnc2c1ncn2[C@@H]1O[C@H](CO)[C@H]1CO |  | 63.7 µM |
| Cc1cn([C@@H]2C[C@@H](N=[N+]=[N-])[C@H](COC(=O)NCCCCNC(=O)OC[C@H]3O[C@@H](n4cc(C)c(=O)[nH]c4=O)C[C@@H]3N=[N+]=[N-])O2)c(=O)[nH]c1=O | MTT | 200 µM |
| CN(C)c1ccc(CNC(=O)[C@@H](NC(=O)c2ccccc2-c2ccccc2)[C@@H]2N[C@@H](C(=O)NCCNC(=O)[C@@H]3N[C@@H]([C@H](NC(=O)c4ccccc4-c4ccccc4)C(=O)NCc4ccc(N(C)C)cc4)SC3(C)C)C(C)(C)S2)cc1 |  | >100 µM |
| FC(F)(F)c1ccc2c(c1)nc1n2C(c2c(Cl)cccc2Cl)SC1 |  | 25.9 µM |
| CCCCCCCCC(=O)/C=C/C=C/C=C/C(=O)O[C@@]12C[C@@H](C)[C@@]3(O)[C@@H](C=C(CO)C[C@]4(O)C(=O)C(C)=C[C@@H]34)[C@@H]1C2(C)C | MTT | 25 µM |
| CCCCCCN(C)C(=O)Oc1nsnc1-c1c(Cl)cccc1Cl |  | 19 µM |
| Cc1ccc(CN2C(=O)CSC2c2c(F)cccc2Cl)o1 |  | 46.9 µM |
| Cn1ncc2c1S(=O)(=O)N(Cc1cccc(Cl)c1)C(=O)N2Cc1ccc(Cl)cc1 | MTT | 246.1 µM |
| Nc1ncnc2c1ncn2C=C1CC1CO |  | 79 µM |
| Cc1cn([C@H]2C[C@H](N=[N+]=[N-])[C@@H](CO)O2)c(=O)[nH]c1=O |  | 4.6 µM |
| CN(C)C(=O)Oc1nsnc1-c1cc(Cl)ccc1Cl |  | 111 µM |
| N#CCN1C(=O)N(Cc2ccccc2)S(=O)(=O)c2cscc21 |  | 504 µM |
| O=c1cc2ccccc2c(O)n1O | MTT | 69.13 µM |
| CC(C)=CCN1Cc2cccc3[nH]c(=S)n(c23)C[C@H]1C |  | ≥250 µg/mL |
| O=C1/C(=C/c2ccc(O)c(O)c2)CC(C(=O)O)C/C1=C\c1ccc(O)c(O)c1 | MTT | 42 µM |
| Cc1cn([C@H]2C[C@H](N=[N+]=[N-])[C@@H](COP(=O)(OCCSC(=O)C(C)(C)C)Oc3ccccc3)O2)c(=O)[nH]c1=O |  | >10 µM |
| CCCCCCCCCC(=O)O[C@@H]1[C@@H](C)[C@]2(O)[C@@H]3C=C(C)C(=O)[C@@H]3CC(COC(C)=O)=C[C@H]2[C@@H]2C(C)(C)[C@]12OC(C)=O |  | >1000 µg/mL |
| COc1ccc2nc3n(c2c1)C(c1c(Cl)cccc1Cl)SC3 |  | 292 µM |
| Nc1ncnc2c1ncn2/C=C1/C[C@H]1CO |  | >100 µM |
| O=c1ccn([C@H]2C[C@H](F)[C@@H](CO)O2)c(=O)[nH]1 |  | 1.1 µM |
| CC(C)[C@H](NC(=O)[C@H](CCCN=C(N)N)NC(=O)N[C@@H](Cc1ccccc1)C(=O)O)C(=O)NC(C=O)Cc1ccccc1 |  | >100 µM |
| COC(=O)[C@H](C)NP(=O)(OC[C@H]1C=C[C@@H](n2cnc3c(N)ncnc32)C1)Oc1ccc(Cl)c(Cl)c1 | trypan blue | 15.6 µM |
| O=C1CCSC(c2c(Cl)cccc2Cl)N1Cc1ccco1 |  | 72.72 µM |
| N#CCN1C(=O)N(Cc2cccc(F)c2)S(=O)(=O)c2cscc21 | MTT | >340 µM |
| O=c1[nH]c(=O)n([C@H]2C[C@H](F)[C@@H](CO)O2)cc1I |  | 3.3 µM |
| COc1ccc2c(c1)nc1n2C(c2c(Cl)cccc2Cl)SC1 |  | 1.7 µM |
| CCNC(=O)[C@@H](NC(=O)c1ccccc1Oc1ccccc1)[C@@H]1N[C@@H](C(=O)NCCNC(=O)[C@@H]2N[C@@H]([C@H](NC(=O)c3ccccc3Oc3ccccc3)C(=O)NCC)SC2(C)C)C(C)(C)S1 |  | >100 µM |
| Nc1ccn([C@H]2CC[C@@H](CO)O2)c(=O)n1 |  | 74–3000 µM |
| COc1ccc(S(=O)(=O)NC(N)=NCCC[C@H](NC(=O)N[C@@H](Cc2ccccc2)C(=O)OC(C)(C)C)C(=O)N[C@H](C(=O)N[C@H](C=O)Cc2ccccc2)C(C)C)cc1 |  | 1.7 µM |
| O=C1NC(=S)NC(=O)C1=Cc1cc(O)c(O)c(O)c1 | MTT | 70 µM |
| c1ccc(C2SCc3nc4ccccc4n32)cc1 |  | 19.2 µM |
| Nc1nc(N)c2ncn(CCOCP(=O)(O)O)c2n1 |  | 6 µg/mL |
| COC(=O)[C@@H](CC(C)C)NP(=O)(OC[C@H]1C=C[C@@H](n2cnc3c(N)ncnc32)C1)Oc1ccccc1 | trypan blue | 77.1 µM |
| Cn1ncc2c1S(=O)(=O)N(Cc1cccc(Cl)c1)C(=O)N2Cc1ccccc1F | MTT | 257.8 µM |
| COc1cc(O)c2c(c1)C(=O)c1c(cc3c(c1O)-c1c(cc(C)c(C(=O)N[C@H](C)C(=O)O)c1O)[C@H](O[C@@H]1O[C@H](C)[C@H](O)[C@H](O[C@@H]4OC[C@@H](O)[C@H](O)[C@H]4O)[C@H]1O)[C@H]3O)C2=O |  | >100 µg/mL |
| COC[C@H](NC(=O)C(F)(F)C(=O)[C@H](Cc1ccc(OCc2ccccc2)cc1)NC(=O)[C@@H](NC(=O)OCc1ccccc1)C(C)C)C(C)C |  | 8 µM |
| Cc1cn([C@@H]2C[C@@H](N=[N+]=[N-])[C@H](COC(=O)OC[C@H]3O[C@@H](n4cc(C)c(=O)[nH]c4=O)C[C@@H]3N=[N+]=[N-])O2)c(=O)[nH]c1=O | MTT | 128.1 µM |
| CCCC(=O)OCC1=C[C@H]2[C@@H]3C(C)(C)[C@]3(OC(=O)CCC)[C@H](OC(=O)CCC)[C@@H](C)[C@]2(O)[C@@H]2C=C(C)C(=O)[C@]2(O)C1 |  | >62.5 µg/mL |
| Fc1cccc(F)c1C1SCc2nc3ccccc3n21 |  | 48.6 µM |
| CCCCCCCCCCCC(=O)O[C@@]12[C@H](OC(C)=O)[C@@H](C)[C@@]3(O)[C@@H](C=C(CO)C[C@]4(O)C(=O)C(C)=C[C@@H]34)[C@@H]1C2(C)C |  | >500 µg/mL |
| Cc1nc(N2C(=O)CSC2c2c(Cl)cccc2Cl)ccc1Br |  | 26.28 µM |
| Cc1cn([C@H]2C=C[C@@H](CO)O2)c(=O)[nH]c1=O | MTT | 299 µM |
| O=C1CSC(c2c(Cl)cccc2Cl)N1Cc1ccco1 |  | 44.5 µM |
| C#CCN1C(=O)N(Cc2ccccc2)S(=O)(=O)c2cscc21 |  | 157 µM |
| CC(C)=CCN1Cc2cc(F)cc3[nH]c(=S)n(c23)C[C@@H]1C |  | 24.7 µg/mL |
| Fc1cc2nc3n(c2cc1F)C(c1c(F)cccc1F)SC3 |  | 37.3 µM |
| CCNC(=O)[C@@H](NC(=O)CC(C)C)[C@@H]1N[C@@H](C(=O)NCCNC(=O)[C@@H]2N[C@@H]([C@H](NC(=O)CC(C)C)C(=O)NCC)SC2(C)C)C(C)(C)S1 |  | >100 µM |
| CC(C)[C@H](COCc1ccccc1)NC(=O)C(F)(F)C(=O)C(Cc1ccc(OCc2ccccc2)cc1)NC(=O)[C@@H](NC(=O)OCc1ccccc1)C(C)C |  | 90 µM |
| CC1=C[C@H]2[C@@]3(O)[C@H](C)[C@@H](O)[C@]4(O)[C@H]([C@@H]3C=C(CO)C[C@@]2(O)C1=O)C4(C)C |  | >500 µg/mL |
| COC(=O)[C@@H](Cc1c[nH]c2ccccc12)NP(=O)(OC[C@H]1C=C[C@@H](n2cnc3c(N)ncnc32)C1)Oc1ccccc1 | trypan blue | 66.9 µM |
| Fc1cccc(Cl)c1C1SCc2nc3cc(C(F)(F)F)ccc3n21 |  | >335 µM |
| CCN1C/C(=C\c2ccc(O)c(O)c2)C(=O)/C(=C/c2ccc(O)c(O)c2)C1 | MTT | 5 µM |
| Cn1ncc2c1S(=O)(=O)N(Cc1cccc(Cl)c1)C(=O)N2Cc1ccccc1Cl | MTT | >277.2 µM |
| Cc1cn([C@@H]2C=C[C@H](COC(=O)NCCCCNC(=O)OC[C@H]3O[C@@H](n4cc(C)c(=O)[nH]c4=O)C[C@@H]3N=[N+]=[N-])O2)c(=O)[nH]c1=O | MTT | 186 µM |
| CCCN(C)C(=O)Oc1nsnc1-c1c(Cl)cccc1Cl |  | 28 µM |
| O=C1CSC2(CCCCC2)N1c1ccccn1 |  | 502 µM |
| CCN1C(=O)N(Cc2ccccc2)S(=O)(=O)c2cscc21 |  | 512 µM |
| CCOC(=O)C1C/C(=C\c2ccc(O)c(O)c2)C(=O)/C(=C/c2ccc(O)c(O)c2)C1 | MTT | 5 µM |
| CCCCCCCCCCCCCCCCC(=O)O[C@@H]1[C@@H](C)[C@@]2(O)[C@@H](C=C(COC(C)=O)C[C@@]3(O)C(=O)C(C)=C[C@@H]23)[C@@H]2C(C)(C)[C@]12OC(C)=O |  | >1000 µg/mL |
| COC(=O)[C@H](C)NP(=O)(OC[C@H]1C=C[C@@H](n2cnc3c(N)ncnc32)C1)Oc1ccc([N+](=O)[O-])cc1 | trypan blue | 21.6 µM |
| O=C1/C(=C\c2cc(O)c(O)c(O)c2)Cc2ccccc21 | MTT | 16 µM |
| Cn1ncc2c1S(=O)(=O)N(Cc1cccc(Cl)c1)C(=O)N2Cc1ccccc1Br | MTT | >252.3 µM |
| Cc1ccc(CN2C(=O)CSC2c2c(Cl)cccc2Cl)o1 |  | 29.65 µM |
| Nc1ncnc2c1ncn2/C=C1/C[C@@H]1CO |  | >100 µM |
| CCNC(=O)[C@@H](NC(=O)c1ccccc1-c1ccccc1)[C@@H]1N[C@@H](C(=O)NCCNC(=O)[C@@H]2N[C@@H]([C@H](NC(=O)c3ccccc3-c3ccccc3)C(=O)NCC)SC2(C)C)C(C)(C)S1 |  | >100 µM |
| CC(C)=NOC(=O)OC[C@H]1O[C@@H](n2cc(C)c(=O)[nH]c2=O)C[C@@H]1N=[N+]=[N-] | MTT | 155 µM |
| O=C(Oc1nsnc1-c1c(Cl)cccc1Cl)N1CCCCC1 |  | 221 µM |

Repeating the final 7 entries:

smiles,method,result
O=C1/C(=C\c2cc(O)c(O)c(O)c2)Cc2ccccc21,MTT,16 µM
Cn1ncc2c1S(=O)(=O)N(Cc1cccc(Cl)c1)C(=O)N2Cc1ccccc1Br,MTT,>252.3 µM
Cc1ccc(CN2C(=O)CSC2c2c(Cl)cccc2Cl)o1,,29.65 µM
Nc1ncnc2c1ncn2/C=C1/C[C@@H]1CO,,>100 µM
CCNC(=O)[C@@H](NC(=O)c1ccccc1-c1ccccc1)[C@@H]1N[C@@H](C(=O)NCCNC(=O)[C@@H]2N[C@@H]([C@H](NC(=O)c3ccccc3-c3ccccc3)C(=O)NCC)SC2(C)C)C(C)(C)S1,,>100 µM
CC(C)=NOC(=O)OC[C@H]1O[C@@H](n2cc(C)c(=O)[nH]c2=O)C[C@@H]1N=[N+]=[N-],MTT,155 µM
O=C(Oc1nsnc1-c1c(Cl)cccc1Cl)N1CCCCC1,,221 µM